Laboratory results as given in article PMC4388869 (Journal of neuroimmune pharmacology : the official journal …, 2015).

Sequences of proteins named here, by UniProt entry; tags and fusion partners are left off.
UniProt Q01959, whole entry: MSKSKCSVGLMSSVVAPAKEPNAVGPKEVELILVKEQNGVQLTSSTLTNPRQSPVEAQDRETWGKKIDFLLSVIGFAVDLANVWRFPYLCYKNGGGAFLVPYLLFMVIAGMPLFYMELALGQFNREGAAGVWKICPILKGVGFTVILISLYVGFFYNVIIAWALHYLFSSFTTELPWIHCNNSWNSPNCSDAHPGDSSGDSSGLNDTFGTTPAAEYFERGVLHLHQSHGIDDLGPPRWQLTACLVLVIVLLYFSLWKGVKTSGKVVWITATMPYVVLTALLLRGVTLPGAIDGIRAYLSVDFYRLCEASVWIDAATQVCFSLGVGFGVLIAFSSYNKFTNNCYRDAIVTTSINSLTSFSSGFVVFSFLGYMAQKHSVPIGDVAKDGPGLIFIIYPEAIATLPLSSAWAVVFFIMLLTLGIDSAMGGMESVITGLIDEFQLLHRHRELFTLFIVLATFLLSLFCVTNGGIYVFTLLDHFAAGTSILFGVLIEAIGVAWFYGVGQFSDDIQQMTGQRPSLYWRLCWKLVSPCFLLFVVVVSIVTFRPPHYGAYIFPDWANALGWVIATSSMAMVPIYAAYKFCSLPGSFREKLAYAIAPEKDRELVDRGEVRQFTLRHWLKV

Biological target: WT hDAT (Homo sapiens, UniProt Q01959)
Experiment: [3H]WIN 35,428 binding assay, WT hDAT
Conditions: PC12 cell suspension, on ice 2 h

Substance: 2beta-carbomethoxy-3-beta-(4-fluorophenyl)tropane [WIN35,428]
- Bmax of [3H]WIN 35,428 binding: 9.7 ± 1.6 pmol/10^5 cells
